Results of unrelated studies side by side (data: NIAID ChemDB).

Shared fields: enzyme or target tests; agent: Hepatitis C virus; target: RNA-dependent RNA polymerase; endpoint: IC50

ICn is the concentration giving n% inhibition. Conditions beyond the fields shown may differ between rows. Two numbers with a dash give a range or band.

{"SMILES": "COc1cc(C(=O)N2[C@@H](c3nccs3)[C@@H](c3nc(C)no3)C[C@@]2(C)C(=O)O)ccc1C(C)(C)C", "result": "<50 µM"}
{"SMILES": "O=Cc1ccc(O)c(O)c1O", "result": "7 µM"}
{"SMILES": "COc1cc(C(=O)N2[C@@H](c3nccs3)[C@](C)(C#N)C[C@@]2(CC(C)C)C(=O)O)ccc1C(C)(C)C", "result": "<10 µM"}
{"SMILES": "CC(C)C[C@@]1(C(=O)O)C[C@H](c2nc3ccccc3o2)[C@H](c2nccs2)N1C(=O)c1ccc(C(C)(C)C)c(Br)c1", "result": "<50 µM"}
{"SMILES": "Cc1ccc(C(=O)NCCc2ccccn2)c(Nc2ccc3[nH]ncc3c2)n1", "result": "<0.1 µg/mL"}
{"SMILES": "CC1=C(C(N)=O)[C@H](c2nccs2)N(C(=O)c2ccc(C(C)(C)C)cc2)[C@]1(CC(C)C)C(=O)O", "result": "<50 µM"}
{"SMILES": "Cc1ccc(C(=O)NCc2cccnc2)c(Nc2ccc3[nH]ncc3c2)n1", "result": "<1 µg/mL"}
{"SMILES": "C[N+]1(C)CCN(/N=C\\c2ccc(O)c(O)c2O)CC1", "result": "30–40 µM"}
{"SMILES": "CC(C)C[C@@]1(C(=O)O)C[C@@H](C#N)[C@H](c2nccs2)N1C(=O)c1ccc(C(C)(C)C)c(Cl)c1", "result": "<10 µM"}
{"SMILES": "Cc1ccc(C(=O)NC(C)C)c(Nc2ccc3[nH]ncc3c2)n1", "result": "<1 µg/mL"}
{"SMILES": "Cc1nc([C@@H]2C[C@@](CC(C)C)(C(=O)O)N(C(=O)c3ccc(C(C)(C)C)cc3)[C@H]2c2nccs2)n[nH]1", "result": "<50 µM"}
{"SMILES": "CC(C)C[C@@]1(C(=O)O)C=C(C(=O)NCC2CCCCC2)[C@H](c2nccs2)N1C(=O)c1ccc(C(C)(C)C)cc1", "result": "<50 µM"}
{"SMILES": "CO[C@@H]1[C@H](OP([O-])(=S)OC[C@@H]2C[C@@H](O)[C@H](n3ccc(N)nc3=O)O2)[C@@H](COP(=O)(O)O)O[C@H]1n1cnc2c(=O)[nH]c(N)nc21", "result": "50 µM"}
{"SMILES": "C[N+]1(Cc2ccccc2)CCN(/N=C\\c2ccc(O)c(O)c2)CC1", "result": ">400 µM"}
{"SMILES": "COc1cc(C(=O)N2[C@@H](c3nccs3)[C@](C)(c3noc(C)n3)C[C@@]2(CC(C)C)C(=O)O)ccc1C(C)(C)C", "result": "<50 µM"}
{"SMILES": "CC(C)C[C@@]1(C(=O)O)C=C(C(=O)O)[C@H](c2nccs2)N1C(=O)c1ccc(C(C)(C)C)c(Br)c1", "result": "<50 µM"}
{"SMILES": "O=C(O)c1cc2nc(-c3cccc(Cl)c3)cc(-c3cccc(F)c3)n2n1", "result": ">10 µM"}
{"SMILES": "Cc1nc([C@H]2C[C@@](CC(C)C)(C(=O)O)N(C(=O)c3ccc(C(C)(C)C)cc3)[C@H]2c2nccs2)ns1", "result": "<50 µM"}
{"SMILES": "CNC(=O)c1ccc(C)nc1Nc1ccc2cn[nH]c2c1", "result": "~0.1 µg/mL"}
{"SMILES": "Oc1ccc(/C=N\\N2CCOCC2)c(O)c1O", "result": "30–40 µM"}
{"SMILES": "O=C(O)c1ccc(COc2ccc(-c3cnc4c(-c5nn[nH]n5)cnn4c3C3CCCCC3)cc2)cc1", "result": "<1 µM"}
{"SMILES": "CC(C)C[C@@]1(C(=O)O)C[C@@H](c2nc3ccccc3o2)[C@H](c2nccs2)N1C(=O)c1ccc(C(C)(C)C)c(Br)c1", "result": "<50 µM"}
{"SMILES": "COc1cc(C(=O)N2[C@@H](c3cscn3)[C@H](C#N)C[C@@]2(CC(C)C)C(=O)O)ccc1C(C)(C)C", "result": "<10 µM"}
{"SMILES": "CC(C)C[C@@]1(C(=O)O)C=C(C(N)=O)[C@H](c2nccs2)N1C(=O)c1ccc(C(C)(C)C)cc1", "result": "<50 µM"}
{"SMILES": "NN1CCN(/N=C\\c2ccc(O)c(O)c2O)CC1", "result": "10–20 µM"}
{"SMILES": "O=C(O)[C@H](Cc1ccccc1)N(C(=O)c1ccc(-c2ccc(Cl)cc2Cl)o1)C(=O)c1ccc(Cl)cc1Cl", "result": "<5 µM"}
{"SMILES": "C[N+]1(C)CCN(/N=C\\c2cc(O)c(O)c(O)c2)CC1", "result": "10 µM"}
{"SMILES": "O=C(O)c1cc2nc(-c3ccc(-c4ccc5c(c4)OCO5)cc3)c(C3CCCCC3)c(=O)n2[nH]1", "result": "1–10 µM"}
{"SMILES": "Cc1ccc(C(=O)NCCCn2ccnc2)c(Nc2ccc3cn[nH]c3c2)n1", "result": "<1 µg/mL"}
{"SMILES": "CC(C)C[C@@]1(C(=O)O)C[C@@H](c2ncn(C)n2)[C@H](c2nccs2)N1C(=O)c1ccc(C(C)(C)C)cc1", "result": "<50 µM"}
{"SMILES": "O=C(N[C@@H](CO)C(=O)O)c1cnn2c(C3CCCCC3)c(-c3ccc(OCc4ccccc4)cc3)cnc12", "result": "1–10 µM"}
{"SMILES": "Cc1ccc(C(=O)Nc2cccnc2)c(Nc2ccc3[nH]ncc3c2)n1", "result": "<1 µg/mL"}
{"SMILES": "CC(C)C[C@@]1(C(=O)O)C=C(C(N)=O)[C@H](c2nccs2)N1C(=O)c1ccc(C(C)(C)C)c(Br)c1", "result": "<50 µM"}
{"SMILES": "O=C(O)C(Cc1ccccc1)N(Cc1ccc(-c2ccc(Cl)s2)s1)C(=O)c1ccc(Cl)cc1Cl", "result": "<5 µM"}
{"SMILES": "Cc1cc(C(=O)N2[C@@H](c3nccs3)[C@H](C#N)C[C@@]2(CC(C)C)C(=O)O)ccc1C(C)(C)C", "result": "<10 µM"}
{"SMILES": "C[N+]1(C)CCN(/N=C\\c2ccc(O)c(O)c2)CC1", "result": ">400 µM"}
{"SMILES": "Cc1ccc(C(=O)NCCN(C)C)c(Nc2ccc3cn[nH]c3c2)n1", "result": "<0.1 µg/mL"}
{"SMILES": "O=C(O)C(Cc1ccccc1)N(Cc1ccc(-c2cccc(Cl)c2)o1)C(=O)c1ccc(Cl)cc1Cl", "result": "<5 µM"}
{"SMILES": "COc1cc(C(=O)N2[C@@H](c3nccs3)[C@H](C#N)C[C@@]2(CC(C)C)C(=O)O)ccc1C(C)(C)C", "result": "<10 µM"}
{"SMILES": "C[N+]1(Cc2ccccc2)CCN(/N=C\\c2cc(O)c(O)c(O)c2)CC1", "result": "10 µM"}
{"SMILES": "Cc1cc(Cl)ccc1C(=O)N(Cc1ccc(-c2cccc(C(F)(F)F)c2)s1)C(Cc1ccccc1)C(=O)O", "result": "<5 µM"}
{"SMILES": "CN1CCN(/N=C\\c2ccc(O)c(O)c2)CC1", "result": ">400 µM"}
{"SMILES": "CC(C)C[C@@]1(C(=O)O)C=C(C(=O)NCCC(=O)O)[C@H](c2nccs2)N1C(=O)c1ccc(C(C)(C)C)cc1", "result": "<50 µM"}
{"SMILES": "O=C(O)[C@H](Cc1ccccc1)N(Cc1ccc(-c2ccc(Cl)c(F)c2)o1)C(=O)c1ccc(Cl)cc1Cl", "result": "<5 µM"}